Test results from patent US20140315822A1.

Target: T1, PDZ domain of the human MAST2 protein (human), Q6P0Q8
T1 chain: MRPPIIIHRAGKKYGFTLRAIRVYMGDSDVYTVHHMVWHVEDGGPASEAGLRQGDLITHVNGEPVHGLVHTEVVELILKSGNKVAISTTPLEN

## SWESHKSGGQTRL [VIR13 (Neurovita 1)]
  TΔS (entropy): -1880
  n (stoechiometry): 1
  ΔH (enthalpy): -9930
